We go through three molecules from PubChem BioAssay AID434955 (Southern Research Specialized Biocontainment Screening …, 2010).

The term IC90 denotes the concentration at which the effect reaches the 90% level.

For this assay, the system named is M. tuberculosis H37Rv growth with meropenem, percent inhibition. The assay is described as follows: beta-lactam sensitization of Mtb H37Rv, H37Rv (AID 434955).
`O=[As](O)(c1ccc(O)cc1)c1ccccc1O`: the IC90 was 57.6 µM.

In the case of `Nc1ccc([As](=O)(O)c2ccc([N+](=O)[O-])cc2)cc1`, the IC90 is 7.99 µM.

As to `Nc1ccc([As](=O)(O)c2ccc(N)cc2)cc1`, the IC90 was 63.9 µM.
